PubChem BioAssay AID624099 | ICCB-Longwood, 2012
This is an unselected part of about 21,000 reagents tested. 497 of all reagents (2.4%) count as active. 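Higher z means weaker E2 silencing; only reporter increases were scored, and knock-downs that hurt cell survival may mask genuine repressor factors.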 No sequences are given here.

Aim: 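Host factors E2 relies on to silence an HPV18 LCR reporter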 (primary screen)
Cell system: human C33A cervical carcinoma cells (HPV-negative) stably expressing BPV1 E2 and an HPV18 LCR luciferase reporter
Knock-down reagent: siRNA pool against human genes, 40 nM
Timing: 72 h
Measured: 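Per-well luciferase luminescence, z-scored on each plate against the plate mean and SD with control wells left out, then averaged across three replicate plates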
Direction: mean z-score and z-score: higher = stronger reporter signal, weaker E2 silencing
Rule for the call: 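Mean z ≥ 2 together with z ≥ 2 in two or more of the three replicates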

The opening 2 entries, ahead of the listing:
mean z-score	z-score, replicate A	z-score, replicate B	z-score, replicate C	outcome	target	PubChem SID
-0.74	-0.73	-0.64	-0.86	inactive	CD40 (CD40 molecule)	SID134313027
-0.79	-0.69	-1.04	-0.65	inactive	LOC400692 (retired record)	SID134328905

The list itself, from the first entry:
mean z-score	z-score, replicate A	z-score, replicate B	z-score, replicate C	outcome	target	PubChem SID
-0.74	-0.73	-0.64	-0.86	inactive	CD40 (CD40 molecule)	SID134313027
-0.79	-0.69	-1.04	-0.65	inactive	LOC400692 (retired record)	SID134328905
0.19	0.02	0.26	0.29	inactive	LOC133185 (retired record)	SID134325870
-0.22	0.01	-0.37	-0.3	inactive	GABRE (gamma-aminobutyric acid type A receptor subunit epsilon)	SID134311591
-0.89	-0.87	-1	-0.79	inactive	CCDC59 (coiled-coil domain containing 59)	SID134324344
0.24	0.11	0.04	0.55	inactive	TFE3 (transcription factor binding to IGHM enhancer 3)	SID134314118
0.66	0.29	0.73	0.95	inactive	PM20D2 (peptidase M20 domain containing 2)	SID134326202
0.45	0	0.83	0.52	inactive	PRR27 (proline rich 27)	SID134330017
0.42	0.36	0.6	0.31	inactive	COL8A2 (collagen type VIII alpha 2 chain)	SID134316323
1.6	1.49	1.21	2.11	inactive	SV2A (synaptic vesicle glycoprotein 2A)	SID134312676
1.07	0.79	1.11	1.32	inactive	AZIN2 (antizyme inhibitor 2)	SID134313250
-4.95	-5.08	-5.02	-4.75	inactive	RPL22L1 (ribosomal protein L22 like 1)	SID134325783
0.02	0.07	-0.39	0.36	inactive	VEZF1 (vascular endothelial zinc finger 1)	SID134323400
-0.6	-0.28	-0.79	-0.72	inactive	C1orf115 (chromosome 1 open reading frame 115)	SID134322253
-0.99	-0.92	-1.11	-0.94	inactive	ZNF154 (zinc finger protein 154)	SID134325859
0.96	0.59	1.1	1.21	inactive	HSD3B1	SID134313813
0.42	0.16	0.4	0.69	inactive	VPS37B (VPS37B subunit of ESCRT-I)	SID134318562
-0.99	-1.04	-0.97	-0.94	inactive	NXT1 (nuclear transport factor 2 like export factor 1)	SID134321144
0.66	0.78	0.93	0.27	inactive	RCCD1 (RCC1 domain containing 1)	SID134325362
-0.78	-0.79	-1.04	-0.51	inactive	PEAK3 (PEAK family member 3)	SID134326845
0.11	0.17	0.27	-0.09	inactive	LOC285321 (retired record)	SID134325702
1.34	1.12	1.4	1.49	inactive	INHA (inhibin subunit alpha)	SID134316021
1.48	1.21	1.66	1.57	inactive	SPATA31A6 (SPATA31 subfamily A member 6)	SID134328057
-0.99	-1.13	-0.89	-0.94	inactive	MGLL (monoglyceride lipase)	SID134314155
-2.25	-1.62	-2.15	-2.98	inactive	EPHB1 (EPH receptor B1)	SID56478501
-1.16	-1.12	-1.3	-1.05	inactive	LOC338694	SID134326608
-0.04	-0.37	0.17	0.07	inactive	LOC388361 (retired record)	SID134328807
0.84	0.68	0.69	1.14	inactive	ATAD3B (ATPase family AAA domain containing 3B)	SID134323230
0.17	0.3	0.25	-0.05	inactive	SLC13A2	SID134312440
0.54	0.79	0.42	0.42	inactive	SAG (S-antigen visual arrestin)	SID134315464
0.02	0.03	0	0.02	inactive	ATP6V1G3 (ATPase H+ transporting V1 subunit G3)	SID134321499
-0.3	0.23	-0.51	-0.63	inactive	TBCD (tubulin folding cofactor D)	SID134317641
-0.61	-0.42	-0.59	-0.83	inactive	PFKFB1 (6-phosphofructo-2-kinase/fructose-2,6-biphosphatase 1)	SID56479125
0.42	0.52	0.55	0.17	inactive	MRPL53 (mitochondrial ribosomal protein L53)	SID134317189
-0.33	-0.06	-0.48	-0.46	inactive	LGR6 (leucine rich repeat containing G protein-coupled receptor 6)	SID134311087
-1.04	-0.8	-0.93	-1.37	inactive	MRM3 (mitochondrial rRNA methyltransferase 3)	SID134319493
-0.14	-0.06	-0.35	0	inactive	XYLB (xylulokinase)	SID56479153
-1.11	-1.21	-1.32	-0.8	inactive	DNAI7 (dynein axonemal intermediate chain 7)	SID134326764
-0.7	-0.8	-0.4	-0.91	inactive	HIVEP3 (HIVEP zinc finger 3)	SID134318506
